From patent publication US20020123056A1, “SGK2 and its uses” (priority 2000, published 2002)

System: SGK2
Settings: Hi5 insect cells expressing GST-SGK2 treated four hours at 27° C. (100 nM microcysteine, 99.8 nM okadaic acid, 49.8 nM calyculin A)

In the case of `C=C1[C@@H](O)[C@@H]2O[C@]3(CC[C@H](/C=C/[C@@H](C)[C@@H]4CC(C)=C[C@@]5(O[C@H](C[C@@](C)(O)C(=O)O)CC[C@H]5O)O4)O3)CC[C@H]2O[C@@H]1[C@@H](O)C[C@H](C)[C@H]1O[C@@]2(CCCCO2)CC[C@H]1C`, the “No-Substrate (CCPM1)” value (purified GST-SGK2 assayed without substrate) was 2078 CCPM1, the “CapK sub(CCPM1)” value (substrate CapK sub 1 mg/ml, 15 minutes at room temperature) was 161553 CCPM1 and the “PKB sub (CCPM1)” value (substrate PKB sub 1 mg/ml, 15 minutes at room temperature) was 132171 CCPM1.
